Literature values in patent publication US9745266B2 (THE REGENTS OF THE UNIVERSITY OF COLORADO, A BODY CORPORATE, priority 2013, dated 2017).

Test system: S. aureus
Settings: CLSI Performance Standards for Antimicrobial Testing; cited from earlier work

Row | SMILES | sensitive range
1 | Cc1onc(-c2ccccc2)c1C(=O)N[C@@H]1C(=O)N2[C@@H]1SC(C)(C)[C@@H]2C(=O)O [oxacillin] | ≦2 μg/ml
2 | C[C@@H](O)[C@H]1C(=O)N2C(C(=O)O)=C(S[C@@H]3CN[C@H](C(=O)N(C)C)C3)[C@H](C)[C@H]12 [meropenem] | ≦4 μg/ml
3 | CC[C@H]1OC(=O)[C@H](C)[C@@H](O[C@H]2C[C@@](C)(OC)[C@@H](O)[C@H](C)O2)[C@H](C)[C@@H](O[C@@H]2O[C@H](C)C[C@H](N(C)C)[C@H]2O)[C@](C)(O)C[C@@H](C)C(=O)[C@H](C)[C@@H](O)[C@]1(C)O [erythromycin] | ≦0.5 μg/ml
